Pooled drug test results. Numbers come from NIAID ChemDB, via PubChem.

All rows: tests in culture; species: HIV-1; cells: MT-2; endpoint: EC50

a–b is a range or a potency band. Lines come from different laboratories, so protocols vary. ECn is the concentration giving n% inhibition of infection, replication or growth. Blank or dashed fields: not listed here.

structure | strain | changes | read by | setting | value
CC(C)OC(=O)N[C@@]12CC[C@]3(C)[C@H](CC[C@@H]4[C@@]5(C)CC[C@H](OC(=O)CC(C)(C)C(=O)O)C(C)(C)[C@@H]5CC[C@]43C)C1=C(C(C)C)C(=O)C2 | IIIB | - | RT activity | 30% human serum | <0.199 µM
Cc1ccc(F)cc1S(=O)(=O)N1CCC2(CC1)OCCn1c2nc(C(=O)NCc2ccc(F)cc2-n2ncnc2C)c(O)c1=O | NL4-3 | - | luciferase / reporter gene | - | 0.001–0.01 µM
CC(C)C1=C2[C@H]3CC[C@@H]4[C@@]5(C)CC[C@H](OC(=O)[C@H]6C[C@@H](C(=O)O)C6(C)C)C(C)(C)[C@@H]5CC[C@@]4(C)[C@]3(C)CC[C@@]2(CCNCc2ccc(N3CCOCC3)cc2)CC1=O | 92HT599 | - | p24 / ELISA | - | <1 µM
CCN(C)C(=O)[C@@]1(C)Cn2c(=O)c(C(=O)NC)c(O)c3ncc(Cc4ccc(F)cc4)c(c32)O1 | IIIB | - | ATP / luminescence | - | 0.0025 µM
CC(C)C1=C2[C@H]3CC[C@@H]4[C@@]5(C)CC[C@H](OC(=O)[C@@H]6C[C@H](C(=O)O)C6(C)C)C(C)(C)[C@@H]5CC[C@@]4(C)[C@]3(C)CC[C@@]2([C@@H](O)CNCc2ccc(Cl)cc2)CC1=O | 92HT599 | - | p24 / ELISA | - | <1 µM
Cc1nc2ccccc2c(-c2ccc(Cl)cc2)c1[C@H](OC(C)(C)C)C(=O)O | - | - | - | - | 0.104 µM
CC(C)C1=C2[C@H]3CC[C@@H]4[C@@]5(C)CC[C@H](OC(=O)CC(C)(C)C(=O)O)C(C)(C)[C@@H]5CC[C@@]4(C)[C@]3(C)CC[C@@]2(NC(=O)NCc2nncn2C)CC1=O | IIIB | - | RT activity | 30% human serum | >1 µM
CC(C)C1=C2[C@H]3CC[C@@H]4[C@@]5(C)CC[C@H](OC(=O)[C@H]6C[C@@H](C(=O)O)C6(C)C)C(C)(C)[C@@H]5CC[C@@]4(C)[C@]3(C)CC[C@@]2(CC(=O)NCc2ccc(CN3CCS(=O)(=O)CC3)cc2)CC1=O | 92HT599 | - | p24 / ELISA | - | <1 µM
CNC(=O)c1c(O)c2ncc(Cc3ccc(F)cc3)c3c2n(c1=O)C[C@](C)(C(=O)NC(C)(C)CO)O3 | IIIB | - | ATP / luminescence | - | 0.0085 µM
Cc1ccc(S(=O)(=O)N2CCC3(CC2)OCCn2c3nc(C(=O)NCc3ccc(F)cc3)c(O)c2=O)cc1 | NL4-3 | - | luciferase / reporter gene | - | 0.001–0.01 µM
CC(C)C1=C2C3CCC4[C@@]5(C)CC[C@H](OC(=O)CC(C)(C)C(=O)O)C(C)(C)C5CC[C@@]4(C)[C@]3(C)CC[C@@]2(NC(=O)c2nnc(C3CC3)o2)CC1=O | IIIB | - | RT activity | 30% human serum | <0.199 µM
O=c1[nH]cnc2c1ncn2[C@@H]1O[C@H](CO)C[C@@H]1F | IIIB BCH-13520-resistant (RT V75I) | RT-V75I | RT activity | - | 0.93 µM
CC(C)C1=C2[C@H]3CC[C@@H]4[C@@]5(C)CC[C@H](OC(=O)CC(C)(C)C(=O)O)C(C)(C)[C@@H]5CC[C@@]4(C)[C@]3(C)CC[C@@]2(NC(=O)NC2CN(C(=O)OC(C)(C)C)C2)CC1=O | IIIB | - | RT activity | 30% human serum | <0.199 µM
Nc1nc(NC2CC2)c2ncn([C@H]3CO[C@@H](CO)O3)c2n1 | IIIB | - | RT activity | - | 0.18 µM
CN(C)C(=O)N1CCC2(CC1)OCCn1c2nc(C(=O)NCc2ccc(F)cc2-n2cncn2)c(O)c1=O | NL4-3 | - | luciferase / reporter gene | - | 0.001–0.01 µM
CC(C)C1=C2[C@H]3CC[C@@H]4[C@@]5(C)CC[C@H](OC(=O)CC(C)(C)C(=O)O)C(C)(C)[C@@H]5CC[C@@]4(C)[C@]3(C)CC[C@@]2(NC(=O)c2c[nH]ccc2=O)CC1=O | IIIB | - | RT activity | 30% human serum | <0.199 µM
CC(C)C1=C2[C@H]3CC[C@@H]4[C@@]5(C)CC[C@H](OC(=O)[C@H]6C[C@@H](C(=O)O)C6(C)C)C(C)(C)[C@@H]5CC[C@@]4(C)[C@]3(C)CC[C@@]2([C@@H](O)CNC(=O)CNC(=O)c2ccc(Cl)cc2)CC1=O | 92HT599 | - | p24 / ELISA | - | <1 µM
Cc1nnc(C(=O)N2CCC3(CC2)NCCn2c3nc(C(=O)NCc3ccc(F)cc3)c(O)c2=O)o1 | NL4-3 | - | luciferase / reporter gene | - | 0.01–0.1 µM
COc1ncc(OC)c2c(C(=O)C(=O)N3CCN(C(=O)c4ccccc4)CC3)c[nH]c12 | IIIB | - | RT activity | - | 0.16 µM
CNC(=O)c1c(O)c2ncc(Cc3ccc(F)cc3)c3c2n(c1=O)C[C@H](CN1CCOCC1(C)C)O3 | IIIB | - | ATP / luminescence | - | 0.0076 µM
Cc1ncnn1-c1cc(F)ccc1CNC(=O)c1nc2n(c(=O)c1O)CCOC21CCN(C(=O)OCc2ccccc2)CC1 | NL4-3 | - | luciferase / reporter gene | - | 0.001–0.01 µM
CNC(=O)[C@H]1Cn2c(=O)c(C(=O)NCCOC)c(O)c3ncc(Cc4ccc(F)cc4)c(c32)O1 | IIIB | - | ATP / luminescence | - | 0.012 µM
CC(C)C1=C2C3CCC4[C@@]5(C)CC[C@H](OC(=O)CC(C)(C)C(=O)O)C(C)(C)C5CC[C@@]4(C)[C@]3(C)CC[C@@]2(NC(=O)NCc2ccccn2)CC1=O | IIIB | - | RT activity | 30% human serum | <0.199 µM
CNC(=O)c1c(O)c2ncc(Cc3ccc(F)cc3)c3c2n(c1=O)C[C@](C)(C(=O)NCCO)O3 | IIIB | - | ATP / luminescence | - | 0.014 µM
CC(C)C1=C2[C@H]3CC[C@@H]4[C@@]5(C)CC[C@H](OC(=O)[C@H]6C[C@@H](C(=O)O)C6(C)C)C(C)(C)[C@@H]5CC[C@@]4(C)[C@]3(C)CC[C@@]2([C@@H](O)CNCc2nccn2C)CC1=O | 92HT599 | - | p24 / ELISA | - | <1 µM
CC(C)C1=C2[C@H]3CC[C@@H]4[C@@]5(C)CC[C@H](OC(=O)CC(C)(C)C(=O)O)C(C)(C)[C@@H]5CC[C@@]4(C)[C@]3(C)CC[C@@]2(NC(=O)CCN2CCCC2=O)CC1=O | IIIB | - | RT activity | 30% human serum | <0.199 µM
CC(C)C1=C2[C@H]3CC[C@@H]4[C@@]5(C)CC[C@H](OC(=O)[C@H]6C[C@@H](C(=O)O)C6(C)C)C(C)(C)[C@@H]5CC[C@@]4(C)[C@]3(C)CC[C@@]2([C@@H](O)CNCc2ccc3nc[nH]c3c2)CC1=O | 92HT599 | - | p24 / ELISA | - | <1 µM
CC(C)C1=C2C3CCC4[C@@]5(C)CC[C@H](OC(=O)CC(C)(C)C(=O)O)C(C)(C)C5CC[C@@]4(C)[C@]3(C)CC[C@@]2(NC(=O)N[C@@H](C)c2ccccc2)CC1=O | IIIB | - | RT activity | 30% human serum | <0.199 µM
CC(C)C1=C2[C@H]3CC[C@@H]4[C@@]5(C)CC[C@H](OC(=O)[C@H]6C[C@@H](C(=O)O)C6(C)C)C(C)(C)[C@@H]5CC[C@@]4(C)[C@]3(C)CC[C@@]2(CCNCC(CCCCN)NC(=O)c2ccc(Cl)cc2)CC1=O | 92HT599 | - | p24 / ELISA | - | <1 µM
Cc1ccc(C(=O)N[C@@]23CC[C@]4(C)[C@H](CC[C@@H]5[C@@]6(C)CC[C@H](OC(=O)CC(C)(C)C(=O)O)C(C)(C)[C@@H]6CC[C@]54C)C2=C(C(C)C)C(=O)C3)cc1 | IIIB | - | RT activity | 30% human serum | <0.199 µM

The first 3 rows once more:

structure	strain	changes	read by	setting	value
CC(C)OC(=O)N[C@@]12CC[C@]3(C)[C@H](CC[C@@H]4[C@@]5(C)CC[C@H](OC(=O)CC(C)(C)C(=O)O)C(C)(C)[C@@H]5CC[C@]43C)C1=C(C(C)C)C(=O)C2	IIIB	-	RT activity	30% human serum	<0.199 µM
Cc1ccc(F)cc1S(=O)(=O)N1CCC2(CC1)OCCn1c2nc(C(=O)NCc2ccc(F)cc2-n2ncnc2C)c(O)c1=O	NL4-3	-	luciferase / reporter gene	-	0.001–0.01 µM
CC(C)C1=C2[C@H]3CC[C@@H]4[C@@]5(C)CC[C@H](OC(=O)[C@H]6C[C@@H](C(=O)O)C6(C)C)C(C)(C)[C@@H]5CC[C@@]4(C)[C@]3(C)CC[C@@]2(CCNCc2ccc(N3CCOCC3)cc2)CC1=O	92HT599	-	p24 / ELISA	-	<1 µM